Data reported in patent publication US20260069689A1, “ANTI-SARS-COV-2-SPIKE GLYCOPROTEIN ANTIBODIES AND ANTIGEN-BINDING FRAGMENTS” (Regeneron, published 2026).
Where a chain is given by its changes, count along the chain named.

B1: mAb14294 (antibody, V domains shown)
VH: EVQLVESGGGLVQPGGSLRLSCAASGFTFSNHWMDWVRQAPGKGLVWVSRINSDGSSTDYADSVRGRFTMSRDNAKNTLYLQMSSLRAEDTAVYYCAREGMIFGAVIIPGWYFDLWGRGALVTVSS
VL: EIVLTQSPGTLSLSPGERATLSCRASQSVSSSQLAWYQQKPGQAPRLLIYGASSRATGIPDRFSGSGSGTDFTLTISRLEPEDFAVYYCQQYDSFGQGTKLEIKR
B2: mAb14283 (antibody, V domains shown)
VH: QVQLQESGPGLVKPSGTLSLTCDVSGGSISSNNWWSWVRQRPGKGLQWIGEIYHNENTNYNPSLKSRVIMSIDKSKNQFSLKLTSVTAADTAVYYCARGDVLDWFDPWGQGTLVTVSS
VL: QSALTQPASVSGSPGQSTTISCTGTSSDVGGYNYVSWYQQYPGKAPKLMIYDVTNRPSGVSHRFSGSKSGNTASLTISGLQAEDEADYYCSSYTSSSTVIFGGGTKLTVLG
B3: mAb14235 (antibody, V domains shown)
VH: QITLKESGPTLVKPTQTLTLTCTFSGFSLNTGGVGVGWIRQPPGNALEWLALIYWDDDKRYNPSLKTRLTISKDTSKNQVVLTMTNMDPVDTATYFCAHLTIAVIVDFWGQGTLVTVSS
VL: QSALTQPASVSGSPGQSITISCTATSSDVGTYNYVSWFQHHPGKAPKLMIYEVTNRPSGVSNRFSGSKSGNTASLTISGLQAEDEADYYCSSYTTTSIVFGGGTKLTVLG
B4: mAb14289 (antibody, V domains shown)
VH: QVQLVQSGPEVKKPGASVKVSCKASGYTFTSYAISWVRQAPGQGLEWMGWISAYNGNTNYAQKLQGRVTMTTDTFTSTAYMELRSLRSDDTAVYYCAVPADHITFDYWGQGTLVTVSS
VL: EIVLTQSPGTLSLSPGERATLSCRASQSVSSYLAWYQQKPGQAPRLLIHGASSRATGIPDRFSGSGSGTDFTLTISRLEPEDFAVYYCQQYGSSFLTFGGGTKVEIKR
B5: mAb14313 (antibody, V domains shown)
VH: EVQLVESGGGLVQPGRSLRLSCVASGFTFDDSAMHWVRQPPGKGLEWVSGISWNSGIIGYAESVKGRFIISRDNAKNSLFLHMRGLRPEDTAVYYCARDRLELSYYYYGMDVWGQGTTVTVSS
VL: QSVLTQPPSASGTPGQRVTISCSGSSSNIGSNTVNWYQQFPGTAPRLLIYSNDQRPSGIPDRFSGSKSGTSASLAISGLQSEDEADYYCSTWDDSLNGAVFGGGTQLTVLG
B6: mAb14247 (antibody, V domains shown)
VH: QITLKESGPTLVKPTQTLTLTCTFSGFSLSTSAVGVGWIRQPPGKALEWLALIYWDDDKRYSPSLKSRLTITKDTSKNQLVLTMTNVDPVDTATYYCAHHTIQLIFDYWGQGTLVTVSS
VL: QSALTQPASVSGSPGQSITISCTATSSDVGNYNYVSWYQQHPGKAPKLMIYEVSNRPSGVSNRFSGSKSGNTASLTISGLQAEDEADYYCSSYTSSSTPLVFGGGTKLTVLG
B7: mAb14315 (antibody, V domains shown)
VH: QVQLVQSGAEVKKPGSSVKVSCKASGDTFSTYAINWVRQAPGQGLEWMGRFIHIFGTANYAQKFQGRVTITADESTSTAYMELRSLRSEDTAVYYCARDGVDYGDYRPDYWGQGTLVTVSS
VL: EIVLTQSPGTLSLSPGERATLSCRASQSVSSNYLAWYQQKPGQAPRLLIYGASSRATGIPERFSGSGSGTDFTLTISRLEPEDFAVYYCQQYGSSLYTFGQGTKLEIKR
B8: mAb14257 (antibody, V domains shown)
VH: EVQLVESGGGLVQPGGSLRLSCAASGFTVSRSYMNWVRQAPGKGLEWVSVVFTGGTTKHTDSVKGRFTISRDNSMNTLYLQMNSLRPEDTAVYYCARVAIVETTGAFDIWGQGTMVTVSS
VL: QSVLTQPPSVSGAPGQRVTISCTGTSSNIGADFDVHWYQQFPGTAPKLLIYGHTNRPSGIPDRFSGSKSGTSASLAITGLQAEDEADYYCQSYDSSLSGSVVFGGGTKLTVLG
B9: mAb14255 (antibody, V domains shown)
VH: QVQLQESGPGLVKPSETLSLTCTVSGGSISGYYWSWIRQPPGKGLDWIGYIYYRGNTNYNPSLKSRVTISVDTSNNQFSLKLSSVTAADTAVYYCARYGEGYGDASGYHFDYWGQGTLVTVSS
VL: QSALTQPASVSGSPGQSITISCTGTSSDVGSYNLVSWYQQHPGKAPKLMIYEDSKRPSGVANPFSGSKSGNTASLTISGLQAEDEADYYCSSYAGSSTWVFGGGTKLTVLG
B10: mAb14286 (antibody, V domains shown)
VH: QVQLVQSGAEVKKPGASVKVSCKASGYTFTDYFIHWVRQAPGQGLEWMGWINPTSGGTNYAQKFRGRVTMTRDTSISTAYVELSRLRSDDTALYYCARDLPFYSDTKQFDYWGQGTLVTVSS
VL: B2 VL with S13Y, T18I, Y41H, Y51F, T54S, H62N, I77F, V99L, I100V
B11: mAb14282 (antibody, V domains shown)
VH: QVQLVQSGAEVKKPGASVKVSCKASGYIFTDHYMHWVRQAPGQGLEWMGWINPNSGATNYAQNFQGRVTMTRDTSIITVYMELSRLRSDDTAVYYCARDSSPYMIRYTMDVWGQGTTITVSS
VL: QSALTQPASVSGSPGQSITISCTGTSSDVGSYNLVSWYQQHPGKAPKLMIYELTKRPSGVSNRFSGSKSGNTASLTISGLQAEDEADYYCSSYRGSVTDVVFGGGTKLTVLG
B12: mAb14281 (antibody, V domains shown)
VH: QVQLVQSGADVKKPGASVKVSCKTSGYIFTGYYIHWVRQAPGQGLEWMGWINPNSGGTNSAQKFQGRVTMTRDTSISTVYMELSRLRSDDTAVYYCAKSNSFSVLDYNFDYWGQGTLVTVSS
VL: SSELTQDPAVSVALGQTVRITCQGDSLRSYYASWYQQKPGQAPVLVIYDKNNRPSGIPDRFSGSSSGNTASLTITGAQAEDEADYYCNSRDSSRNHLVVFGGGTKLTVLG
B13: mAb14230 (antibody, V domains shown)
VH: EVQLVESGGGLIQPGRSLRLSCAASGFTFDDYAMHWVRQAPGKGLEWVSGISWNSVSIDYADSVKGRFTISRDNAKNSLYLQMTSLTVEDTALYYCAKAFGYETLTGSDYFAYWGPGTLVTVSS
VL: EIVLTQSPGTLSLSPGERATLSCRASQTVISTYLAWYQQKPGQSPRLLIYGASSRATGIPDRFSGSGSGTDFTLTISRLEPEDFAVYYCQQYGSSPQLTFGGGTKVEIKR
B14: mAb15163 (antibody, V domains shown)
VH: EVQLVETGGGLIQPGESLRLSCAASGFIVSTNYMNWVRQAPGKGLEWVSVIYRGGSTYYADSVKGRFTISRDNSKNTLFLQMNSLRAEDTAVYYCARGHEDFDYDTPASGAFDIWGQGTMVTVSS
VL: QSALTQPPSASGSPGQSVTISCTGTSSDVGGHNYVSWYQQHPGKAPKVMIYEVSKRPSGVPDRFSGSKSGNTASLTVSGLQAEDEADYYCSSYAGSNKFVFGTGTKVTVLG
B15: mAb15164 (antibody, V domains shown)
VH: EVQLVESGGGLVQPGGSLRLSCAASGFAVSSNYMTWVRQAPGKGLEWVATIYSGDSTYYADSVKGRFTISRHNSKNTLSLQMNSLRADDTAIYYCARLSGVLSGTYNGAFDIWGQGTMVTVSS
VL: B9 VL with V29F, S31N, L34I, K44Q, L48V, D53G, S54N, A61S, P63R, N71H
B16: mAb15165 (antibody, V domains shown)
VH: EVQLVESGGGLVQPGGSLRLSCAASGFTVSSNYMSWVRQAPGKGLEWVSAIYSGDSTYYADSVKGRFTISKDNSKNTLYLQMNSLRGEDTAVYYCARLGGALQAYDGAFDYWGQGTLATVSS
VL: B9 VL with V29F, D53G, S54N, A61S, N62I, P63R
B17: mAb15166 (antibody, V domains shown)
VH: EVQLVESGGGLVQPGGSLRLSCAASGFTVTSNYMSWVRQAPGKGLEWVSAIYSGESTYYADSVKGRFTISRDSSKNTLYLQMNSLRVEDTAVYYCASIHDYSNYVGGFDPWGQGTLVTVSS
VL: B9 VL with T25P, V29F, D53G, S54T, A61S, P63R
B18: mAb15170 (antibody, V domains shown)
VH: EVQLVESGGGLVQPGGSLRLSCAATGITVSSNYMSWVRQAPGKGLEWVSLIYSGGSTFYADSVKGRFTISRHNSKNTLYLQMSSLRAEDTAVYYCARDLVDFGMDVWGQGTTVTVSS
VL: DIQLTQSPSSLSASVGDRVTITCRASQGISNYLAWYQQKPGKAPKLLIYAASTLQSGVPSRFSGSGSGTDFTLTISSLQPEDFGTYYCQQLNSDSPTFGQGTKVEIKR
B19: mAb15150 (antibody, V domains shown)
VH: EVQLVETGGGLIQPGGSLRLSCAAPGFIVSSNYMSWVRQAPGKGLEWVSLLYPGGSTYYADSVKGRFTISRDNSKNTLYLQMNSLRADDTAVYYCARVLPIVEDHFDYWGQGTLVTVSS
VL: DIQLTQSPSFLSASVGDRVTITCRASQGMSSYLAWYQKKPGKAPKLLIYGATILQSGVPSRFSGSGSGTEFTLTISSLQPEDFATYYCQQLNSDPLYMYTFGQGTKLEIKR
B20: mAb15151 (antibody, V domains shown)
VH: QVQLVESGGGVVQPGRSLRLSCAASGFVFNSYGMHWVRQAPGKGLEWVAVLWYEGSKNYYADSVKGRFTISRDNSKNTLYLQMNSLRAEDTAVYYCARHGSGSFFGYYLDYWGQGTLVTVSS
VL: DIQMTQSPSSLSASVGDRVTITCRASHNINDFLNWYQQKPGKAPRLLIYAASSLQSGVPSRFSGSGSGTDFTLTISSLQPEDFATYYCQESYTTPPTFGQGTKLEIKR

Molecular target: T1, SARS-CoV2 Spike ecto foldon Trimer expressed with a C-terminal myc-myc-hexahistidine (SARS-CoV-2, UniProt P0DTC2 14-1213)
T1 construct: extracellular domain
Test: SPR Biacore, mAb captured by anti-hFc, 37C

Binder	Spike trimer.their bound at 50 nM [RU]
B1	441
B2	470
B3	397
B4	456
B5	611
B6	247
B7	457
B8	685
B9	575
B10	539
B11	566
B12	430
B13	436

Molecular target: SARS-COV-2 RBD extracellular domain expressed with a C-terminal myc-myc-hexahistidine tag (SARS-COV-2 RBD-mmH) (SARS-CoV-2)
Test: SPR Biacore, mAb captured on anti-hFc, RBD-mmH analyte, 37 C

Binder	RBD monomer bound at 50 nM (RU)
B14	72.7
B15	93.4
B16	82.5
B17	19.7
B18	56.3
B19	64.9
B20	141

Molecular target: T1, SARS-CoV2 Spike ecto foldon Trimer …
Test: SPR Biacore, mAb captured by anti-hFc, 25C

Binder	Spike trimer.their bound at 50 nM [RU]
B1	342
B2	352
B3	298
B4	345
B5	462
B6	143
B7	335
B8	535
B9	454
B10	425
B11	422
B12	311
B13	340
